A mixed list of measured activities; the numbers were collected in NIAID ChemDB.

Common to all: growth or infection tests; species: Mycobacterium tuberculosis

Blank or dashed fields: not listed here. A number after MIC or MFC names an inhibition level or a share of isolates. Conditions beyond the fields shown may differ between rows. Inhibition is in % at the dose shown (toxicity tests: loss of growth or viability). MIC bound comes from a single tested concentration.

smiles,endpoint,dose,changes,strain,cells,method,result
c1ccc2c(c1)Cc1cc(N=C3CCC(=Nc4ccc5c(c4)Cc4ccccc4-5)CC3)ccc1-2,inhibition,12.5 µg/mL,-,H37Rv,-,BACTEC,-4%
O=C(c1cn(-c2ccc(Cl)cc2)nn1)c1ccco1,MIC,-,-,H37Rv,-,-,>12.5 µg/mL
CCn1cc(C(=O)O)c(=O)c2cc(F)c(N3CCN(C(=O)Cc4ccccc4Nc4c(Cl)cccc4Cl)CC3)cc21,MIC,-,-,H37Rv,-,-,0.33 µM
CSC(=S)NN=C(C)C,inhibition,12.5 µg/mL,-,H37Rv,-,BACTEC,98%
COc1cc(Cc2cnc(N)nc2N)cc(OC)c1OCCCNc1ccc(S(=O)(=O)c2ccc(N)cc2)cc1,MIC,-,-,H37Rv,-,-,4.1 µM
CO[C@H]1/C=C/O[C@@]2(C)Oc3c(C)c(O)c4c(O)c(c5c(c4c3C2=O)NC2(CCN(CC(C)C)CC2)N=5)=NC(=O)/C(C)=C\C=C\[C@H](C)[C@H](O)[C@@H](C)[C@@H](O)[C@@H](C)[C@H](OC(C)=O)[C@@H]1C,MIC,-,-,1 isolates (His526Cys),-,-,0.0625 µg/mL
CC(C)Cn1c(-c2ccc(Br)cc2)cs/c1=N\NC(=O)COc1cnccn1,MIC,-,-,H37Rv,-,-,18 µg/mL
CCn1cc(C(=O)O)c(=O)c2cc(F)c(N3CCN(C(=O)Cc4ccccc4Nc4c(Cl)cccc4Cl)C(C)C3)c(F)c21,MIC,-,-,H37Rv,-,-,0.32 µM
NNC(=O)c1ccncc1,MIC,-,Isoniazid-resistant rINH,H37Rv,-,resazurin,>4 µM
CC1(C)O[C@H]2[C@@H]([C@H](O)Cn3ccnc3[N+](=O)[O-])OC[C@H]2O1,MIC,-,-,H37Rv,-,-,>25 µg/mL
COc1cc(Cc2cnc(N)nc2N)cc(OC)c1OCCCNc1ccc(S(=O)(=O)c2ccc(C)cc2)cc1,MIC,-,-,H37Rv,-,-,28.4 µM
Cc1c(CN2CCN(C)CC2)cc(-c2ccc(Cl)cc2)n1Cc1ccccc1,MIC,-,-,H37Rv,-,-,<12.5 µg/mL
CCOc1ccc(N2C(=O)CC(Nc3ccc(Oc4ccc(Cl)cc4)c(Cl)c3)C2=O)cc1,MIC,-,-,H37Rv,-,-,100 µg/mL
CC(=O)Nc1ccc2[nH]c(=O)c3cc(Cl)ccc3c2c1,inhibition,12.5 µg/mL,-,H37Rv,-,BACTEC,-6%
N[C@@H]1CONC1=O,MIC,-,-,-,-,-,10 µg/mL
COc1cc(/C=N/NC(=O)C(=O)N/N=C/c2cc(OC)c(OC)c(OC)c2)cc(OC)c1OC,inhibition,12.5 µg/mL,-,H37Rv,-,BACTEC,-1%
CC(C)(C)C(O)c1c(-c2ccccc2)c(-c2ccccc2)n2ccc(C#N)cc12,MIC,-,-,H37Rv,VERO,-,6.25 µg/mL
C1CCNCC1.S=C(S)N1CCCCC1,MIC,-,-,TAC-R,-,-,0.4 µg/mL
CCCCCCn1c(C)cc(CN2CCN(C)CC2)c1C,inhibition,12.5 µg/mL,-,H37Rv,-,-,82%
CN(C)c1ccc(/C=N/NC(=O)Cc2ccccc2Nc2c(Cl)cccc2Cl)cc1,MIC,-,-,H37Rv,-,-,1.76 µM
COc1ccc(C(=O)c2cn(-c3ccc(Cl)cc3)nn2)cc1,inhibition,12.5 µg/mL,-,H37Rv,-,-,0%
COc1cc(Cc2cnc(N)nc2N)cc(OC)c1OCc1ccc(S(=O)(=O)c2ccc(N)cc2)cc1,MIC,-,-,H37Rv,-,-,>61.4 µM
CN[C@@H]1[C@H](O[C@H]2[C@H](O[C@H]3[C@H](O)[C@@H](O)[C@H](N=C(N)N)[C@@H](O)[C@@H]3N=C(N)N)O[C@@H](C)[C@]2(O)C=O)O[C@@H](CO)[C@H](O)[C@H]1O,MIC,-,Streptomycin-resistant (rSM),H37Rv,-,resazurin,>7.9 µM
c1ccc(C(CCNCCNCC23CC4CC(CC(C4)C2)C3)c2ccccc2)cc1,MIC,-,-,H37Rv,-,-,7.8 µM
CC1(C)CCC[C@]2(C)[C@H]3C=C4C=C(O)C(=O)C=C4O[C@@]3(C)CC[C@@H]12,MIC,-,-,H37Rv,-,-,12.5 µg/mL
O=C1CC(Nc2ccc(Oc3ccc(Cl)cc3)c(Cl)c2)C(=O)N1c1ccc(Cl)cc1,MIC,-,-,H37Rv,-,-,>200 µg/mL
CO[C@H]1/C=C/O[C@@]2(C)Oc3c(C)c(O)c4c(O)c(c5c(c4c3C2=O)NC2(CCN(CC(C)C)CC2)N=5)=NC(=O)/C(C)=C\C=C\[C@H](C)[C@H](O)[C@@H](C)[C@@H](O)[C@@H](C)[C@H](OC(C)=O)[C@@H]1C,MIC,-,-,-,-,-,0.5 µg/mL
Cc1ccc(-c2cs/c(=N\NC(=O)COc3cnccn3)n2C(C)C)cc1,MIC,-,-,H37Rv,-,-,9.5 µg/mL
CC1(C)O[C@H]2[C@@H]([C@@H](O)Cn3cc([N+](=O)[O-])nc3[N+](=O)[O-])OC[C@H]2O1,MIC,-,-,H37Rv,-,-,6.25 µg/mL
CCOC(=O)C1=C(C(C)=O)C(c2ccc(OC)c(OC)c2)C(C(C)=O)=C(C(=O)OCC)N1,MIC bound,-,-,H37Rv,-,BACTEC,>12.5 µg/mL
CC1COc2c(N3CCN(C)CC3)c(F)cc3c(=O)c(C(=O)O)cn1c23,MIC,-,-,483-8,-,-,0.5 µg/mL
CCCCn1c(-c2ccc(Br)cc2)cs/c1=N\NC(=O)COc1cnccn1,MIC,-,-,H37Rv,-,-,7.4 µg/mL
CC(=O)NC(=O)NS(=O)(=O)c1ccc(N)cc1,MIC bound,-,-,H37Rv,-,BACTEC,>12.5 µg/mL
O=C(NN=C1CCCCC1)c1ccncc1,MIC99,-,-,-,-,-,0.42 µg/mL
Cc1ccc(N=Nc2c(N)nc(N)nc2N)cc1C,inhibition,12.5 µg/mL,-,H37Rv,-,BACTEC,73%
O=C(c1cn(-c2ccc(Cl)cc2)nn1)c1cccs1,inhibition,12.5 µg/mL,-,H37Rv,-,-,0%
O=C1CC(Nc2ccc(Oc3ccc(Cl)cc3)c(Cl)c2)C(=O)N1c1cccc2ccccc12,MIC,-,-,H37Rv,-,-,100 µg/mL
Cc1c(CN2CCOCC2)c(CN2CCOCC2)c(-c2ccc(Cl)cc2)n1C1CCCCC1,MIC,-,-,103471,-,-,4 µg/mL
CC(=O)NC[C@H]1CN(c2ccc(N3CCOCC3)c(F)c2)C(=O)O1,MIC,-,-,H37Rv,-,agar,0.25 µg/mL
CCCOc1ccc(N2C(=O)CC(Nc3ccc(Oc4ccc(Cl)cc4)c(Cl)c3)C2=O)cc1,MIC,-,-,H37Rv,-,-,100 µg/mL
CC1(C)O[C@H]2[C@@H]([C@H](O)Cn3cnc([N+](=O)[O-])c3)OC[C@H]2O1,MIC,-,-,H37Rv,-,-,6.25 µg/mL
CC(O)c1c(-c2ccccc2)c(-c2ccccc2)n2ccc(C#N)cc12,inhibition,6.25 µg/mL,-,H37Rv,-,-,78%
NC(=O)c1cnccn1,MIC,-,-,-,-,-,6.2 µg/mL
Cn1c2ccccc2c2nnc(SCCN3CCOCC3)nc21,inhibition,6.25 µg/mL,-,H37Rv,-,resazurin,34%
O=C1CC(Nc2ccc(Oc3ccc(Cl)cc3)c(Cl)c2)C(=O)N1c1ccc(Sc2ccc([N+](=O)[O-])cc2)cc1,MIC,-,-,H37Rv,-,-,100 µg/mL
Cc1c(CN2CCOCC2)cc(-c2ccc(Cl)cc2)n1C1CCCCC1,inhibition,12.5 µg/mL,-,H37Rv,-,-,99%
O=C1CC(Nc2ccc(Oc3ccc(Cl)cc3)c(Cl)c2)C(=O)N1c1ccccc1,MIC,-,-,H37Rv,-,-,>200 µg/mL
Cc1ccc(-c2ccc(Cl)cc2)n1Cc1ccccc1,inhibition,12.5 µg/mL,-,H37Rv,-,-,96%
CC1(C)OC(=O)C(=Cc2ccc(-c3ccccc3[N+](=O)[O-])o2)C(=O)O1,MIC bound,-,-,H37Rv,-,BACTEC,>12.5 µg/mL
CC1CN(c2cc3c(cc2F)c(=O)c(C(=O)O)cn3-c2ccc(F)cc2F)CCN1,MIC50,-,-,-,-,-,1.4 µg/mL
C=C[C@@H](O)C#CC#CC/C=C\CCCCCCC,MIC,-,-,H37Ra,-,resazurin,25.6 µM
Cc1ccc(/C(=C/Sc2ccc(Cl)cc2)n2cc(Sc3ccc(Cl)cc3)c(-c3ccc(C)cc3)n2)cc1,MIC,-,-,H37Rv,-,agar,12.5 µg/mL
CCOc1ccc(-n2c(-c3ccc(F)cc3)cs/c2=N\NC(=O)COc2cnccn2)cc1,MIC,-,-,H37Rv,-,-,22 µg/mL
CC1SC2=NC3=C(c4ccccc4C3=O)C(c3ccc(Cl)cc3)N2C1=O,inhibition,12.5 µg/mL,-,H37Rv,-,BACTEC,0%
CC[C@@H](CO)NCCN[C@@H](CC)CO,MIC,-,-,-,-,-,1.5 µg/mL
C[C@@H]1CCC2(NC1)O[C@H]1C[C@H]3[C@@H]4CC=C5C[C@@H](O[C@@H]6O[C@@H](CO)[C@H](O[C@@H]7O[C@H](C)[C@@H](O)[C@H](O)[C@H]7O)[C@@H](O)[C@H]6O)CC[C@]5(C)[C@H]4CC[C@]3(C)[C@H]1[C@@H]2C,MIC bound,-,-,H37Rv,-,BACTEC,>12.5 µg/mL
N#Cc1ccn2c(-c3ccccc3)c(-c3ccccc3)c(C(O)c3ccccc3)c2c1,inhibition,6.25 µg/mL,-,H37Rv,VERO,-,100%
NCCC[C@H](N)CC(=O)N[C@H]1CNC(=O)[C@H]([C@H]2C[C@H](O)NC(N)=N2)NC(=O)/C(=C/NC(N)=O)NC(=O)[C@H](CO)NC(=O)[C@H](CO)NC1=O,MIC,-,-,-,-,-,4 µg/mL
O=C(OCC1OC(O)(COC(=O)c2ccccc2)C(OC(=O)c2ccccc2)C1OC(=O)c1ccccc1)c1ccccc1,inhibition,12.5 µg/mL,-,H37Rv,-,BACTEC,-10%
CCCCCCn1c(C)c(CN2CCN(C)CC2)c(CN2CCN(C)CC2)c1-c1ccc(Cl)cc1,MIC,-,-,103471,-,-,8 µg/mL
CCOC(=O)/C=C1/CCCn2c1ncc(C(=O)OCC)c2=O,inhibition,6.25 µg/mL,-,H37Rv,-,resazurin,36%
Cc1cc(CN2CCN(C)CC2)c(C)n1Cc1ccccc1,MIC,-,-,103471,-,-,8 µg/mL
CC[C@H]1OC(=O)[C@H](C)[C@@H](O[C@H]2C[C@@](C)(OC)[C@@H](O)[C@H](C)O2)[C@H](C)[C@@H](O[C@@H]2O[C@H](C)C[C@H](N(C)C)[C@H]2O)[C@](C)(O)C[C@@H](C)C(=O)[C@H](C)[C@@H](O)[C@]1(C)O,MIC90,-,-,-,-,-,>10 µg/mL
O=C(CSC(=S)N1CCCCC1)c1ccccc1,MIC bound,-,-,H37Rv,-,BACTEC,>128 µg/mL
N#Cc1ccn2c(-c3ccc(Cl)cc3)c(-c3ccc(Cl)cc3)c(C(O)c3ccccc3)c2c1,inhibition,6.25 µg/mL,-,H37Rv,-,-,86%
COC(=O)[C@@H]1[C@H](O)[C@H](C)C(O)[C@H](C)/C=C\C=C(/C)C(=O)Nc2c(C)c(OC(C)=O)c3c(c2O)C(=O)C(C)=C2OCOC(=C23)/C(C)=C/[C@@](C)(O)[C@H](O)[C@@H](C)[C@H]1OC(C)=O,MIC,-,-,KM-R,-,-,3.1 µg/mL
COc1c(N2C[C@H]3CCCN(C(=O)Cn4cc(CN5C(=O)/C(=N\NC(N)=S)C6(F)C=CC=CC56)nn4)[C@H]3C2)c(F)cc2c1N(C1CC1)CC(C(=O)O)C2=O,MIC,-,-,H37Rv,-,visual reading,8 µg/mL
CC1(C)O[C@H]2[C@@H]([C@@H]3Cn4cc([N+](=O)[O-])nc4S3)OC[C@H]2O1,MIC,-,-,H37Rv,-,-,25 µg/mL
COc1c(N2CCNC(C)C2)c(F)cc2c(=O)c(C(=O)O)cn(C3CC3)c12,MIC,-,-,Z148 (isoniazid streptomycin-resistant),-,-,0.25 µg/mL
O=S1(=O)Oc2c(Cl)cc(Cl)cc2S(=O)(=O)Oc2c(Cl)cc(Cl)cc21,inhibition,12.5 µg/mL,-,H37Rv,-,BACTEC,15%
CCCC/C=C/c1c(-c2ccccc2)c(-c2ccccc2)n2ccc(C#N)cc12,inhibition,6.25 µg/mL,-,H37Rv,-,-,46%
NC[C@H]1O[C@H](O[C@H]2[C@H](O)[C@@H](O[C@H]3O[C@H](CO)[C@@H](O)[C@H](N)[C@H]3O)[C@H](N)C[C@@H]2N)[C@H](O)[C@@H](O)[C@@H]1O,MIC,-,-,-,-,-,6 µg/mL
C=CCN(CCNC/C=C(\C)CCC=C(C)C)C1CCCC1,MIC,-,-,H37Rv,-,-,15.6 µM
O=C1NNC=Nc2nc3c(cc21)CCCC3,inhibition,12.5 µg/mL,-,H37Rv,-,BACTEC,4%
CCCCCCn1c(-c2ccc(Cl)cc2)cc(CN2CCN(C)CC2)c1C,MIC,-,-,H37Rv,-,-,<12.5 µg/mL
CCCCN1C(=O)CS/C1=N\NC(=O)COc1cnccn1,MIC,-,-,H37Rv,-,-,159 µg/mL
CCCCC(NC(=O)C1CCCN1C(=O)OCc1ccccc1)C(=O)OCc1ccccc1,inhibition,12.5 µg/mL,-,H37Rv,-,BACTEC,83%
COc1ccc(Cc2cnc(N)nc2N)cc1OCCCNc1ccc(S(=O)(=O)c2ccc(N)cc2)cc1,MIC,-,-,H37Rv,-,-,2.1 µM